Reference: publication PMC8866119

Target: SARS-CoV-2 wild-type RBD (SARS-CoV-2) (UniProt P0DTC2)
Assay: BLI

For LY-CoV016, the Kd was 3.27 nM and the koff was 0.00291 s⁻¹.
